## Results of single-concentration screens

The values are deposited in ChEMBL (CHEMBL3988442, “University of Dundee, Small-Polar-MMV Screening Library” (2021)).

The filed quantity is “Percent Effect” (%).
How 0% and 100% were set is not recorded. Most values in the screen are low, and negative values occur.
This is part of a subset picked to be rich in strong results.

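Phenotypic screen: M. tuberculosis growth, cholesterol and DPPC medium, 4 days; the read-out is not stated. Concentration: 500 µM. Higher reads as more growth inhibition (inferred: compounds with an IC50 in retests scored well above the rest). About 18,000 compounds were tested under these conditions; 5% (about 900) showed 50% or more at least once.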

structure	Percent Effect
CSCC1CCCN1Cc1cccc(N)n1 (stereo not shown)	1.243
CCn1cnnc1CNC(=O)CC1C=CCC1 (stereo not shown)	-4.693
CC1CCN(C(=O)CNS(=O)(=O)c2ccccc2)CC1	18.9
CC(C)n1nnnc1SCCS(=O)(=O)c1ccccc1	56.32
CN(C(=O)CC(N)c1ccccc1)c1cccc(F)c1 (stereo not shown)	7.259
COc1cc(F)cc(NCC(=O)NCc2ccco2)c1	73.23
CC(CO)CNC(=O)c1cnc(OC(C)C)c(Cl)c1 (stereo not shown)	33.52
Nc1nc(NCCc2c[nH]cn2)cc(C2CC(N)C2)n1 (stereo not shown)	16.5
CCN(CCO)Cc1cc(=O)n2ccsc2n1	-16.34
CCOC(=O)Cn1nnc2ccccc2c1=O	49.74
CC(C(=O)Nc1ccc2c(c1)CCC2)S(C)(=O)=O (stereo not shown)	4.197
Cc1cc(CO)nn1C	3.164
Cc1ccc(C)c(NC(=O)CN2CCNC(=O)C2)c1	0.6146
CN1CCN(C(=O)Cc2ccccc2)CC1	12.65
NCc1cnn(-c2ccc(Cl)cc2)c1	30.67
CCC(C)(CC)NC(=O)NC1CC1	7.975
NCc1nnc2ccc(Cl)nn12	-8.317
O=C1CCCCN1CC1CCNCC1	-8.06
CC(=O)NCCCNC(=O)c1cc(F)cc(Br)c1	-3.198
Cc1ccc(C#N)cc1S(=O)(=O)N1CCC[C@@H](N)C1	-9.505
O=C(NCCn1cccc1)c1ccc(Cl)cn1	82.41
COCCN(CC(F)F)C(=O)NCc1ccco1	-0.3612
Cc1ccc(NS(=O)(=O)N(C)C)c(C)c1	13.96
CN(C)C(CNC(=O)c1ccc(O)nc1)c1ccsc1 (stereo not shown)	1.888
Cn1nnc(NC(=O)c2ccc(C#N)cc2F)n1	8.664
CN(CCC(=O)Nc1ccccc1)CC(=O)N(C)C	-5.839
CN(CCOc1ccc(Cl)cc1)C(=O)C(C)(C)CN	65.96
NC(=O)c1cncnc1N	2.445
CCc1noc(C)c1C(=O)Nc1cccnc1	-5.2
CCOc1c(Cl)cc(CN)cc1OC	4.327
O=C1NCCNC1c1c(F)cccc1Cl (stereo not shown)	4.309
CNS(=O)(=O)c1ccc(C(=O)Nc2ccc(F)cc2)o1	43.9
Cc1cc(C(=O)Nc2ccnn2C(C)C)on1	4.59
Cc1nc(Cn2cc(Br)cn2)no1	16.62
CC(N)COCC1CC1 (stereo not shown)	-7.437
COCc1nn(CCCN2CCCCC2)c(=O)o1	-4.057
CC[C@H](CO)NS(=O)(=O)c1c(F)cc(C#N)cc1F	7.883
CCC(CC)(NC(=O)c1noc2c1CCCC2)C(N)=O	15.65
O=C(c1cnsn1)N1CC=C(c2ccccc2)CC1	100.4
CCN(Cc1ccc(Cl)c(Cl)c1)C(=O)CCS(C)(=O)=O	60.35
Cc1nccn1CCC(=O)Nc1sccc1C#N	-19.34
COc1cccc(CNCc2ccc(C(N)=O)cc2)c1	3.314
Cc1ccc(CNCCCOc2ccccn2)o1	44.11
CCC(C)(O)CNC(=O)CCOC(C)C (stereo not shown)	1.967
CN(Cc1ccsc1)CC(O)COCc1ccco1 (stereo not shown)	49.4
CNCC1(O)CCCc2ccccc21 (stereo not shown)	-24.43
CNCc1n[nH]c(=O)n1-c1ccc(C)c(Cl)c1	3.733
OC(CN1CCn2ccnc2C1)c1cc(F)ccc1F (stereo not shown)	-0.4387
CNCC(=O)Nc1cc(F)c(OC)cc1OC	3.113
CC1COCCN1C(=O)Cc1cccc2cccnc12 (stereo not shown)	16.87
CCC1(CO)CCCN(CCn2cc(Cl)cn2)C1 (stereo not shown)	83.03
COCCNC(=O)Nc1ccc(OC(F)F)c(F)c1	69.12
CC(=O)c1cccc(C#N)c1	7.355
CCN1CCc2ccc(NS(=O)(=O)CC)cc21	-9.442
CCC(=O)NC(C)(C#N)C(C)C (stereo not shown)	3.912
COC(=O)C(C)(C)NC(=O)Cc1ccc(F)cc1	6.496
O=C(CN1CCC(O)CC1)Nc1ccc(Br)cn1	-10.89
Cn1nnnc1C1CCCN(C(=O)c2ccccc2)C1 (stereo not shown)	-4.995
Cc1cc(NC(=O)CS(=O)(=O)c2ccccc2)no1	7.542
CNCC(=O)NCCc1cnn(-c2ccccc2)c1	28.42
Cc1ccccc1Oc1ccnc(CN)c1	-14.5
CCOC(=O)c1ccccc1N1C(=O)C=CC1=O	111.7
COC(=O)Cc1sc(N)nc1C	16.88
O=C(CN1C[C@H]2CC[C@@H](C1)[C@H]2O)Nc1ccc(F)cc1	33.52
CCC(C(=O)Nc1ncc(C)[nH]1)N1CCCC1=O (stereo not shown)	-0.2127
O=C(CCC(=O)Nc1ccccc1)NCCO	2.725
Cc1nnnn1-c1cccc(O)c1	18.71
COc1ccc(CN)c(F)c1	-4.1
O=C1CCCCN1c1ccc(S(=O)(=O)NC2CC2)cc1	-18.49
Nc1cncc(-c2nccs2)c1	-20.68
O=C(NCCCOC(F)F)NCc1cccnc1	-15.47
NC(=O)CCNCCc1ccccc1	17.15

7 of the entries, repeated:

| structure | Percent Effect |
|---|---|
| `O=C1CCCCN1c1ccc(S(=O)(=O)NC2CC2)cc1` | -18.49 |
| `Cc1nnnn1-c1cccc(O)c1` | 18.71 |
| `CC(C(=O)Nc1ccc2c(c1)CCC2)S(C)(=O)=O` (stereo not shown) | 4.197 |
| `Cc1nccn1CCC(=O)Nc1sccc1C#N` | -19.34 |
| `CCc1noc(C)c1C(=O)Nc1cccnc1` | -5.2 |
| `O=C1CCCCN1CC1CCNCC1` | -8.06 |
| `COc1cccc(CNCc2ccc(C(N)=O)cc2)c1` | 3.314 |